Values quoted from earlier work as cited in PMC12322948 (The Journal of Organic Chemistry, 2025).

Protein sequences, listed by entry. Tags and fused reporters are not part of them. Residues count along the entry.
UniProt Q9BYF1, 18-805 limits assumed: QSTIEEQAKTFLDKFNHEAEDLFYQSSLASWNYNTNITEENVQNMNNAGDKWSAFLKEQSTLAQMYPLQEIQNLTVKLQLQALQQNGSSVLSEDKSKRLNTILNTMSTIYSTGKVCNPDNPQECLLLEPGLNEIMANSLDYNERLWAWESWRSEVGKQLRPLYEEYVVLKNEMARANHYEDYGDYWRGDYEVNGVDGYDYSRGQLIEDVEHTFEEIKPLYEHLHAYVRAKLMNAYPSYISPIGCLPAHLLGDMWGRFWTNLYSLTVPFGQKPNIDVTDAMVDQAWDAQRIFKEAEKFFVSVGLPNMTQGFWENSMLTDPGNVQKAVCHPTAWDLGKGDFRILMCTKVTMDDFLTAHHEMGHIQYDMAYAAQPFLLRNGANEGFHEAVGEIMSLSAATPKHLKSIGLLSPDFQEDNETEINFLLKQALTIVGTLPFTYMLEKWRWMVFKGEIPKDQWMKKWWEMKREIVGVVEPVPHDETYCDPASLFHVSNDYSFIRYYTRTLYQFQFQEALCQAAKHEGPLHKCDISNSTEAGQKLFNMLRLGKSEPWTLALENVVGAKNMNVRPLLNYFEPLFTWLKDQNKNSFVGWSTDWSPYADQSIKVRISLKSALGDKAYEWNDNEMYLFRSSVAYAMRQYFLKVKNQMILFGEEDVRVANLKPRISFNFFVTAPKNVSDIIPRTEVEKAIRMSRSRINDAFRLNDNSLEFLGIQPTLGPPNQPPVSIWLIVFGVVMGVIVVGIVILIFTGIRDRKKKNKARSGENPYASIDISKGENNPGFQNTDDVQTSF

Molecular target: ACE2 (Homo sapiens, UniProt Q9BYF1)
Settings: published ACE2 value; ref Dales et al.; cited from earlier work

Going from `Cc1cccc(Cn2cncc2C[C@H](N[C@@H](CC(C)C)C(=O)O)C(=O)O)c1` to `Cc1ccc(Cn2cncc2C[C@H](N[C@@H](CC(C)C)C(=O)O)C(=O)O)cc1`, the “Reported pIC50” value falls from 8.38 to 7.49.

Going from `CC(C)C[C@H](N[C@@H](Cc1cncn1Cc1ccc([N+](=O)[O-])cc1)C(=O)O)C(=O)O` to `CC(C)C[C@H](N[C@@H](Cc1cncn1Cc1ccc(Cl)cc1)C(=O)O)C(=O)O`, the “Reported pIC50” value rises from 7.12 to 7.68.

Compared with `CC[C@H](N[C@@H](Cc1cncn1Cc1ccccc1)C(=O)O)C(=O)O`, `Cc1ccccc1Cn1cncc1C[C@H](N[C@@H](CC(C)C)C(=O)O)C(=O)O` is higher in “Reported pIC50” value: 6.52 for the first, 7.54 for the second.

Going from `CC(C)C[C@H](N[C@@H](Cc1cncn1Cc1ccc(OC(F)(F)F)cc1)C(=O)O)C(=O)O` to `Cc1ccc(Cn2cncc2C[C@H](N[C@@H](CC(C)C)C(=O)O)C(=O)O)cc1C`, the “Reported pIC50” value rises from 7.28 to 8.00.

In the case of `Cc1cc(C)cc(Cn2cncc2C[C@H](N[C@@H](CC(C)C)C(=O)O)C(=O)O)c1`, the “Reported pIC50” value is given as 8.85.
